These results are taken from paper PMC4131687.

Test [1] deals with NaV1.2 (Rattus norvegicus) (UniProt P04775).
Test [2] has the same target. The source holds these as a separate data set.

As a reminder, the pKd is the negative decadic logarithm of the Kd, by convention in mol/L.

pKd: −log10 of the molar value. Like-named read-outs stand apart in the source and are kept apart here.

In test [1], “μ-conotoxin KIIIB-P1 (from UniProt P0C195)” had a pKd of 6.33.
Regarding “μ-conotoxin KIIIB-P2 (from UniProt P0C195)”, the pKd in test [2] was 7.59.
